The values below come from patent US8722616B2, “Anti-HIV peptides and methods of use thereof” (priority 2009, dated 2014).

The subject of this data set is HIV-1IIIB. Conditions: TI=TC50/EC50. The procedure: (§1) Anti-HIV cytopathic effect inhibition assays were conducted as described (Buckheit et al. (1995) Antimicrob. Agents Chemother., 39:2718-2727). In brief, serially diluted peptides were added to a 96-well round bottom microtiter plate in triplicate. CEM-SS cells at a concentration of 2.5×10^3 cells per well and HIV-1IIIB at the appropriate pre-determined titer were sequentially added to the microtiter plate. The cultures were incubated at 5% CO2/37° C. for six days. Following the incubation, the microtiter plates were stained with XTT tetrazolium dye to evaluate the efficacy and toxicity of the test compound(s).
as §1, with “Cytopathic Effect (CPE) Inhibition Assay: The CPE assay was performed” for “Anti-HIV cytopathic effect inhibition assays were conducted”, “as previously” for “as”, “Briefly,” for “In brief,”, “compound was” for “peptides were”

Read-outs that look alike come from different tables or passages of the source. No end group written: not given here. A value given as a limit tells only on which side of the number the result lay.

Turning to “HVDKKVADKVLLLKQLRIMRLLTRL [Spinigerin, reference compound]”, the TI (Table 1) is greater than 10.9.
For “LLGDLLRKSKEKIGKEFKRIVQRIKDFLRNLVPRTES [LL-37, reference compound]”, the “therapeutic index (TI)” value is listed as “approximately 11”.
For the setting “Table 1”, “IWLTALKFLGKHAAKHLAKQQLSKL [Lycotoxin I, reference compound]” gave a TI of less than 0.07.
Consider SKEKIGKEFKRIVQRIKDFLR [SK-21], for which the TI (Table 4) was 2.08.
Consider “VFQFLGRIIHHVGNFVHGFSHVF [Clavanin B, reference compound]”, for which the TI (Table 1) was greater than 5.18.
On the same count and under the same terms, the figure for “H-GFKDLLKGAAKALVKTVLF-NH2 [Ascaphin-8, reference compound]” is 2.4.
As to GLRSRIWLWVLLMIWQESNRFKRM [DRS S9r3], the “therapeutic index (TI)” value is reported as roughly 26.
Compound “SWKSMAKKLKEYMEKLKQRA [Latarcin 3a, reference compound]” had a TI (Table 1) greater than 1.23.
For `Cc1cn([C@H]2C[C@H](N=[N+]=[N-])[C@@H](CO)O2)c(=O)[nH]c1=O` [AZT, reference compound], the TI by setting is: (Table 1) greater than 55.6; (Table 2) greater than 71.4; (Table 3) greater than 71.4.
